Laboratory results as given in patent US20200002406A1 (Janssen / Centocor, published 2020).

Key:
Assay in all cases: cell-based or functional assay
[1] = molecular target: neuraminidase (NA) of influenza A virus H1N1 strain A/New Caledonia/20/1999 (Influenza A virus A/New …)
[2] = molecular target: neuraminidase (NA) of influenza A virus H3N2 strain A/Perth/16/2009 (Influenza A virus A/Perth/16/2009 (H3N2))
[3] = molecular target: T1, neuraminidase (NA) of influenza B virus B/Florida/04/2006 (Yamagata lineage) (Influenza B virus B/Florida/04/2006)
[4] = molecular target: T1, neuraminidase (NA) of influenza B virus …; remark: listed apart in the source

B1: CR14012 (antibody, V domains shown)
VH: QVQLQESGGGVVQPGRSLRLSCAASGFSFSTYGMHWVRQAPGKGLEWVAVISYDGSNKYYADSVKGRFTISRDNAKNTLYLQMNSLRAEDTAVYYCGRDSGYTTNWYPGGYWGQGTLVTVSS
VL: not shown
notes: also called sc14-012; anti-NA IgG
> 50 µg/mL: Neuraminidase inhibition activity, EC50 (NA-XTD assay, whole virus) [1] | Neuraminidase inhibition activity, EC50 (NA-XTD assay, whole virus) [2] | Neuraminidase inhibition activity, EC50 (NA-XTD assay, whole virus) [3] | Virus neutralization assay (VNA) on MDCK-SIAT1 cells, IC50 [4]

B2: CR14017 (antibody, V domains shown)
VH: EVQLVETGGGVVQPGRSLRLSCAASGFTFNTHAMHWVRQAPGKGLEWLAVISYDGNIKYYADSVKGRFTISRDSSKNTLYLLMNSLRAEDTAIYYCARDRGDYNYLPSDYWGQGTLVTVSS
VL: not shown
notes: also called sc14-017; anti-NA IgG
> 50 µg/mL: Neuraminidase inhibition activity, EC50 (NA-XTD assay, whole virus) [1] | Neuraminidase inhibition activity, EC50 (NA-XTD assay, whole virus) [2] | Neuraminidase inhibition activity, EC50 (NA-XTD assay, whole virus) [3] | Virus neutralization assay (VNA) on MDCK-SIAT1 cells, IC50 [4]
